## Deep mutational scan of the Zika virus protease

From the data files of Ni et al. 2025, doi:10.1038/s41467-025-63602-z.

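Mutant virus pools were grown in human Huh-7.5 cells. Deep sequencing gave the change in frequency of each mutant relative to wild type, averaged over three replicate libraries (two for positions 207-308). The study looked for pockets that tolerate few changes, as a guide for inhibitor design.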

Chain scanned (Zika virus MR766; NS2B from position 2 to 131, then the start of NS3):
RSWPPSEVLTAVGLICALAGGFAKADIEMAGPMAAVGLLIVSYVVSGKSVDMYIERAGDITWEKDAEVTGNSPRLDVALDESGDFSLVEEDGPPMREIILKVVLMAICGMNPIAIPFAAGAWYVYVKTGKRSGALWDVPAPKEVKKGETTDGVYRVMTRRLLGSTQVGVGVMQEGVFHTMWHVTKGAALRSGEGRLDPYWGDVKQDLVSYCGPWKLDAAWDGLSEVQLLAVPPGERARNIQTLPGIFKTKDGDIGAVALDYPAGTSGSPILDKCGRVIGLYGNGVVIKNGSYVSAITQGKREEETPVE

Scale: log2 effect, wild type = 0; the lower, the more harmful to the virus.
Each entry names the wild-type residue, its position and the residue put in its place.

* R1T -> -8.85
* P4V -> -6.29
* L9H -> -2.85
* A11F -> -5.80
* V12H -> -5.60
* I15G -> -6.77
* L18P -> -6.93
* G21D -> -5.87
* M29T -> -1.27
* A34G -> -1.63
* V36I -> -0.08
* I40E -> -4.73
* I40W -> -3.73
* S42R -> -5.56
* E55* -> -3.77
* I60S -> -8.11
* V68E -> -5.85
* N71R -> -6.93
* S82R -> -5.98
* D91K -> -5.60
* M95S -> -3.34
* I99* -> -7.59
* P112H -> -5.11
* I113P -> -5.96
* A114K -> -5.74
* A114Q -> -6.19
* P116T -> -7.39
* F117N -> -6.08
* V124E -> -6.21
* V126W -> -3.27
* S132H -> -5.86
* L135A -> -7.43
* E143W -> -3.09
* K146C -> -1.18
* T150Y -> -2.24
* R160W -> -0.95
* V171C -> -5.41
* M180R -> -6.21
* G186Y -> -4.55
* R190G -> -3.61
* R190I -> -4.87
* G192H -> -3.96
* G192I -> -5.13
* E193H -> -0.36
* W200D -> -6.12
* W200L -> -7.58
* V203N -> -6.38
* V203T -> -6.99
* K204G -> -8.02
* K204S -> -8.49
* Q205W -> -1.74
* C211Y -> -3.16
* A218K -> -6.21
* S224W -> -5.75
* L228W -> -4.16
* P233K -> -5.26
* R236E -> 0.34
* T242Q -> -5.55
* L243N -> -2.61
* G245C -> -5.47
* F247P -> -6.47
* F247W -> -6.13
* K250A -> -2.56
* I278F -> -4.98
* Y281N -> -5.73
* N283S -> -6.76
* Y292N -> -4.96
* K300C -> -3.78

Excerpt, the final 5 entries:

change,log2 growth effect
I278F,-4.98
Y281N,-5.73
N283S,-6.76
Y292N,-4.96
K300C,-3.78

Positions 1-103, 104-206 and 207-308 were made and measured as separate libraries.
Values above 0 are not proof of better growth: six high scorers were tested one by one, five grew less well than wild type and one about as well.
Stop codons (*) centre on -7 and mark the level of dead virus.
Position 1 still belongs to NS2A. In the paper, -1 or higher counts as tolerated.